Results on one substance are retold here after PMC9152305, “Structural and biochemical mechanism for increased infectivity and immune evasion of Omicron BA.2 variant compared to BA.1 and their possible mouse origins” (2022).

pKd: −log10 of the molar value.

This assay addresses dimeric human ACE2 (Sino Biological, 10108-H02H) (human) (UniProt Q9BYF1). Kind of assay: BLI.

Substance “SARS-CoV-2 Omicron BA.1 spike extracellular domain trimer (domain or fragment)” showed a pKd of 9.12.
